Experiments:
Botrytis cinerea = test: Tomato gray mold pot test (Test Example B); settings: for Tomato gray mold pot test (control value): 250 ppm sprayed, 2.5 ml/pot, tomato variety Oogata Fukuju, degree of disease development 2 to 3 days after inoculation; for control value: Test Example B, tomato gray mold pot test
[1] = tested on: Speckled leaf blotch fungus (Septoria tritici); test: Speckled leaf blotch anti-germ test (Test Example F); settings: for Speckled leaf blotch anti-germ test (rate of inhibition): 50 ppm/well, Czapek-dox broth, 25°C for 3 days, absorbance 600 nm; for rate of inhibition: Test Example F, speckled leaf blotch anti-germ test
[2] = tested on: Anthracnose fungus (Glomerella cingulata); test: Anthracnose anti-germ test (Test Example E); settings: for Anthracnose anti-germ test (rate of inhibition): 50 ppm/well, Czapek-dox broth, 25°C for 3 days, absorbance 600 nm; for rate of inhibition: Test Example E, anthracnose anti-germ test
Magnaporthe grisea = test: Rice blast disease pot test (Test Example A); settings: for Rice blast disease pot test (control value): 250 ppm sprayed, 2.5 ml/pot, rice variety Sachikaze, degree of disease development 6 to 8 days after inoculation; for control value: Test Example A, rice blast disease pot test
[3] = tested on: Gray mold fungus (Botrytis cinerea); test: Gray mold anti-germ test (Test Example C); settings: for Gray mold anti-germ test (rate of inhibition): 50 ppm/well, Czapek-dox broth, 25°C for 3 days, absorbance 600 nm; for rate of inhibition: Test Example C, gray mold anti-germ test
[4] = tested on: Fusarium blight fungus (Fusarium graminearum); test: Fusarium blight anti-germ test (Test Example D); settings: for Fusarium blight anti-germ test (rate of inhibition): 50 ppm/well, Czapek-dox broth, 25°C for 3 days, absorbance 600 nm; for rate of inhibition: Test Example D, Fusarium blight anti-germ test

| Compound | Tomato gray mold pot test (control value) (Botrytis cinerea) | Speckled leaf blotch anti-germ test (rate of inhibition) [1] | Anthracnose anti-germ test (rate of inhibition) [2] | Rice blast disease pot test (control value) (Magnaporthe grisea) | Gray mold anti-germ test (rate of inhibition) [3] | Fusarium blight anti-germ test (rate of inhibition) [4] | control value (Botrytis cinerea) | rate of inhibition [1] | rate of inhibition [2] | control value (Magnaporthe grisea) | rate of inhibition [3] | rate of inhibition [4] |
| --- | --- | --- | --- | --- | --- | --- | --- | --- | --- | --- | --- | --- |
| Cc1ccc2c(c1)OC(C)(C)N=C2n1cnc2c(C)c(C)ccc21 [56] | H (H represents a control value or rate of inhibition of larger than 50%) | H (H represents a control value or rate of inhibition of larger than 50%) | H (H represents a control value or rate of inhibition of larger than 50%) | H (H represents a control value or rate of inhibition of larger than 50%) | H (H represents a control value or rate of inhibition of larger than 50%) | H (H represents a control value or rate of inhibition of larger than 50%) | – | – | – | – | – | – |
| CC1(C)N=C(n2cnc3ccccc32)c2ccccc2O1 | H (H represents a control value or rate of inhibition of larger than 50%) | L (L represents a control value or rate of inhibition of 50% or less) | H (H represents a control value or rate of inhibition of larger than 50%) | H (H represents a control value or rate of inhibition of larger than 50%) | L (L represents a control value or rate of inhibition of 50% or less) | L (L represents a control value or rate of inhibition of 50% or less) | – | – | – | – | – | – |
| CNC(=O)CC1(C)N=C(n2cnc3c(C)c(C)ccc32)c2ccc(C)cc2O1 (stereo not drawn) | H (H represents a control value or rate of inhibition of larger than 50%) | L (L represents a control value or rate of inhibition of 50% or less) | L (L represents a control value or rate of inhibition of 50% or less) | L (L represents a control value or rate of inhibition of 50% or less) | L (L represents a control value or rate of inhibition of 50% or less) | H (H represents a control value or rate of inhibition of larger than 50%) | – | – | – | – | – | – |
| CCOCC1(C)N=C(c2cnn3cc(C)ccc23)c2ccccc2O1 (stereo not drawn) | – | – | – | – | – | – | H (H represents a control value or rate of inhibition of larger than 50%) | H (H represents a control value or rate of inhibition of larger than 50%) | H (H represents a control value or rate of inhibition of larger than 50%) | H (H represents a control value or rate of inhibition of larger than 50%) | H (H represents a control value or rate of inhibition of larger than 50%) | H (H represents a control value or rate of inhibition of larger than 50%) |
| Cc1ccc2c(C3=NC(C)(C)Oc4c(Br)cccc43)cnn2c1C | H (H represents a control value or rate of inhibition of larger than 50%) | L (L represents a control value or rate of inhibition of 50% or less) | H (H represents a control value or rate of inhibition of larger than 50%) | H (H represents a control value or rate of inhibition of larger than 50%) | H (H represents a control value or rate of inhibition of larger than 50%) | H (H represents a control value or rate of inhibition of larger than 50%) | – | – | – | – | – | – |
| Cc1cccc2c1OC(C)(C)N=C2n1cnc2c(F)c(F)ccc21 | H (H represents a control value or rate of inhibition of larger than 50%) | L (L represents a control value or rate of inhibition of 50% or less) | H (H represents a control value or rate of inhibition of larger than 50%) | H (H represents a control value or rate of inhibition of larger than 50%) | H (H represents a control value or rate of inhibition of larger than 50%) | L (L represents a control value or rate of inhibition of 50% or less) | – | – | – | – | – | – |
| CCCCCC1(C)N=C(c2cnc3c(C)ccnn23)c2ccccc2O1 (stereo not drawn) | – | – | – | – | – | – | H (H represents a control value or rate of inhibition of larger than 50%) | H (H represents a control value or rate of inhibition of larger than 50%) | H (H represents a control value or rate of inhibition of larger than 50%) | H (H represents a control value or rate of inhibition of larger than 50%) | H (H represents a control value or rate of inhibition of larger than 50%) | H (H represents a control value or rate of inhibition of larger than 50%) |
| Cc1ccc2c(ncn2C2=NC(C)(C)Sc3ccccc32)c1C | H (H represents a control value or rate of inhibition of larger than 50%) | L (L represents a control value or rate of inhibition of 50% or less) | H (H represents a control value or rate of inhibition of larger than 50%) | H (H represents a control value or rate of inhibition of larger than 50%) | H (H represents a control value or rate of inhibition of larger than 50%) | H (H represents a control value or rate of inhibition of larger than 50%) | – | – | – | – | – | – |
| CCCCC1(C)N=C(c2cnn3c(C)c(C)cnc23)c2cccc(F)c2O1 (stereo not drawn) | – | – | – | – | – | – | H (H represents a control value or rate of inhibition of larger than 50%) | H (H represents a control value or rate of inhibition of larger than 50%) | H (H represents a control value or rate of inhibition of larger than 50%) | H (H represents a control value or rate of inhibition of larger than 50%) | H (H represents a control value or rate of inhibition of larger than 50%) | H (H represents a control value or rate of inhibition of larger than 50%) |
| COc1cccc2c1OC(C)(C)N=C2n1cnc2c(C)cccc21 | H (H represents a control value or rate of inhibition of larger than 50%) | H (H represents a control value or rate of inhibition of larger than 50%) | H (H represents a control value or rate of inhibition of larger than 50%) | H (H represents a control value or rate of inhibition of larger than 50%) | H (H represents a control value or rate of inhibition of larger than 50%) | L (L represents a control value or rate of inhibition of 50% or less) | – | – | – | – | – | – |
| Cc1cccc2c1[S+]([O-])C(C)(C)N=C2n1cnc2c(C)c(C)ccc21 (stereo not drawn) | H (H represents a control value or rate of inhibition of larger than 50%) | L (L represents a control value or rate of inhibition of 50% or less) | H (H represents a control value or rate of inhibition of larger than 50%) | H (H represents a control value or rate of inhibition of larger than 50%) | H (H represents a control value or rate of inhibition of larger than 50%) | H (H represents a control value or rate of inhibition of larger than 50%) | – | – | – | – | – | – |
| Cc1ccc2c(ncn2C2=NC(C)(C)S(=O)(=O)c3c(F)cccc32)c1C | H (H represents a control value or rate of inhibition of larger than 50%) | L (L represents a control value or rate of inhibition of 50% or less) | H (H represents a control value or rate of inhibition of larger than 50%) | H (H represents a control value or rate of inhibition of larger than 50%) | H (H represents a control value or rate of inhibition of larger than 50%) | H (H represents a control value or rate of inhibition of larger than 50%) | – | – | – | – | – | – |
| Cc1cn2ncc(C3=NC(C)(C)Oc4c(C)cccc43)c2nc1C | L (L represents a control value or rate of inhibition of 50% or less) | L (L represents a control value or rate of inhibition of 50% or less) | H (H represents a control value or rate of inhibition of larger than 50%) | H (H represents a control value or rate of inhibition of larger than 50%) | L (L represents a control value or rate of inhibition of 50% or less) | H (H represents a control value or rate of inhibition of larger than 50%) | – | – | – | – | – | – |
| Cc1c(Cl)ccc2c1ncn2C1=NC(C)(C)Oc2cc(F)ccc21 | L (L represents a control value or rate of inhibition of 50% or less) | L (L represents a control value or rate of inhibition of 50% or less) | H (H represents a control value or rate of inhibition of larger than 50%) | L (L represents a control value or rate of inhibition of 50% or less) | L (L represents a control value or rate of inhibition of 50% or less) | L (L represents a control value or rate of inhibition of 50% or less) | – | – | – | – | – | – |
